The test system of this data set is EBOV GPΔTM Mayinga; residues 18–650 (wild type), Ebola virus (EBOV), Mayinga, Q05320 18-650. In words: SEC; size-exclusion HPLC, Superose 6 10/300 column; purified EBOV GPΔTM. For orientation: SEC sorts molecules by how far they enter the pores of the column.

As usually defined, the stoichiometry N is the number of molecules, sites or subunits per partner or assembly. In turn, “EBOV GPΔTM Mayinga; residues 18–650 (wild type)” showed a stoichiometry N of 3.

Values taken from article PMC6328579, “Post-exposure immunotherapy for two ebolaviruses and Marburg virus in nonhuman primates” (2019).
